Anti-infective test results gathered from many reports (values: NIAID ChemDB through PubChem).

Shared fields: growth or infection tests; organism: Respiratory syncytial virus; cells: HeLa; measure: EC50

Neighbouring rows are from separate reports. ECn is the concentration giving n% inhibition of infection, replication or growth. Blank or dashed fields: not listed here.

smiles | strain | read by | value
CC(C)CCCC(C)C1CCC2C3CC=C4CC(OC(=O)Nc5ccc(S(=O)(=O)O)c6cccc(S(=O)(=O)O)c56)CCC4(C)C3CCC12C | - | cytopathic effect | 7 µM
Nc1cc2[nH]cnc2c(=O)[nH]1 | 58-7 | cytopathic effect | 0.89 µg/mL
NC(=O)c1ncn([C@@H]2O[C@H](CO)[C@@H](O)[C@H]2O)n1 | LONG | cytopathic effect | 3.6 µg/mL
C[C@H](O)[C@@H]1C[C@H](CCn2cnc3c(N)ncnc32)C1(C)C | - | cytopathic effect | >400 µg/mL
Nc1ccn([C@@H]2C[C@H](CO)[C@@H](O)[C@H]2O)c(=O)n1 | - | cytopathic effect | >70 µg/mL
NC(=O)c1ncn([C@@H]2O[C@H](CO)[C@@H](O)[C@H]2O)n1 | - | cytopathic effect | 8 µg/mL
N=C(N)c1ccc2[nH]c(C(=N)N)cc2c1 | S-2 | cytopathic effect | >100 µg/mL
Nc1ccc(S(=O)(=O)O)c2ccccc12 | - | cytopathic effect | >200 µM
COc1ccc(Cc2nccc3cc(OC)c(OC)cc23)cc1OC | A2 | cytopathic effect | 12.8 µg/mL
C#Cc1c(C(N)=O)ncn1[C@@H]1O[C@H](CO)[C@@H](O)[C@H]1O | TYPE 3/FM-58-8 | plaque count | 0.09 µg/mL
CC1(C)[C@H](CO)C[C@@H]1Cn1nnc2c(N)nc(N)nc21 | - | cytopathic effect | >400 µg/mL
NC(=O)c1[nH]nc([C@@H]2O[C@H](CO)[C@@H](O)[C@H]2O)c1O | 58-8 | cytopathic effect | 0.09 µg/mL
C#Cc1c(C(N)=O)ncn1[C@@H]1O[C@H](CO)[C@@H](O)[C@H]1O | TYPE A/FM-58-8 | plaque count | 0.18 µg/mL
CC1(C)[C@H](CO)C[C@@H]1Cn1cnc2c(N)nc(N)nc21 | - | cytopathic effect | 3 µg/mL
C[C@H]1C[C@@H](n2cnc3c(N)ncnc32)[C@H](O)[C@@H]1O | LONG | cytopathic effect | ≥40 µg/mL
c1ccc2c(c1)CSSC2 | clone 9 (RD3-0028-resistant) | cytopathic effect | >244.4 µM
NC(=O)c1ncn([C@@H]2O[C@H](CO)[C@@H](O)[C@H]2O)n1 | LONG | cytopathic effect | 3 µg/mL
C#Cc1c(C(N)=O)ncn1[C@@H]1O[C@H](CO)[C@@H](O)[C@H]1O | - | cytopathic effect | 0.7 µg/mL
Nc1ncnc2c1ncn2CC(O)C(=O)O | LONG | cytopathic effect | >500 µg/mL
CC1(C)[C@H](CO)C[C@@H]1Cn1cnc2c(=O)[nH]c(N)nc21 | - | cytopathic effect | 200 µg/mL
CC(C)CCCC(C)C1CCC2C3CC=C4CC(OC(=O)Nc5cc(S(=O)(=O)O)cc6cc(S(=O)(=O)O)cc(O)c56)CC[C@]4(C)C3CC[C@]12C | - | cytopathic effect | >200 µM
Clc1ccc(-c2csc(N3N=C(c4cccs4)CC3c3ccc(Cl)cc3)n2)cc1 | LONG | cytopathic effect | >200 µg/mL

2 of the rows above, restated:

smiles | strain | read by | value
NC(=O)c1ncn([C@@H]2O[C@H](CO)[C@@H](O)[C@H]2O)n1 | LONG | cytopathic effect | 3.6 µg/mL
C[C@H](O)[C@@H]1C[C@H](CCn2cnc3c(N)ncnc32)C1(C)C | - | cytopathic effect | >400 µg/mL